Results of unrelated studies side by side (data: NIAID ChemDB).

All rows: whole-cell or culture tests; species: HIV-1; cells: MT-4; read by: cytopathic effect / MTT; read-out: EC50

An empty or dashed field is not shown. ECn: concentration that inhibits the pathogen or its effect by n%. Conditions beyond the fields shown may differ between rows.

structure	strain	mutations	result
C=CCOCn1c(Cc2cccc(Cc3c(CC)c(=O)[nH]c(=O)n3COCC=C)c2)c(CC)c(=O)[nH]c1=O	RT-K103N+Y181C NNRTI-resistant	RT-K103N Y181C	>100 µM
C=CCOc1cccc(Cc2nc(SC(C)C)nc(OC(C)C)c2CC)c1	RT-K103N Y181C Mutant NNRTI-resistant		>100 µM
O=CC(OC(=O)c1cc(O)c(O)c(O)c1Oc1cc2c(c(O)c1O)-c1c(cc(O)c(O)c1O)C(=O)OC(C(OC(=O)c1cc(O)c(O)c(O)c1)C(C=O)OC(=O)c1cc(O)c(O)c(O)c1)C(O)COC2=O)C(OC(=O)c1cc(O)c(O)c(O)c1)C1OC(=O)c2cc(O)c(O)c(O)c2-c2c(cc(O)c(O)c2O)C(=O)OCC1O	IIIB		>50 µg/mL
Cc1ccc(Nn2c(-c3ccccc3)c(C)[nH]c2=S)cc1Cl	IIIB		>44.29 µM
O=C1O[C@H]2[C@@H]3OC(=O)c4cc(O)c(O)c(O)c4-c4c(cc(Oc5c(C(=O)O[C@H]6[C@H](OC(=O)c7cc(O)c(O)c(O)c7)O[C@H](COC(=O)c7cc(O)c(O)c(O)c7)[C@@H](OC(=O)c7cc(O)c(O)c(O)c7)[C@@H]6OC(=O)c6cc(O)c(O)c(O)c6)cc(O)c(O)c5O)c(O)c4O)C(=O)OC[C@H]2O[C@@H](OC(=O)c2cc(O)c(O)c(O)c2)[C@@H]3OC(=O)c2cc(O)c(O)c3c2[C@H]2C(=O)[C@@](O)(O3)C(=O)C=C12	IIIB		>50 µg/mL
C=CCOc1cccc(Cc2c(CC)c(=O)[nH]c(=O)n2COCC)c1	IIIB		0.5 µM
O=C(O[C@@H]1Cc2c(O)cc(O)cc2O[C@@H]1c1cc(O)c(O)c(O)c1)c1cc(O)c(O)c(O)c1	IIIB		>25 µg/mL
CCc1ncn(Nc2cccc(C)c2)c1-c1ccccc1	IIIB		>27.87 µM
CCc1c(Cc2cccc(Cc3nc(SC)n(C)c(=O)c3CC)c2)nc(SC)n(C)c1=O	RT-K103N+Y181C NNRTI-resistant	RT-K103N Y181C	>100 µM
O=CC1OC(=O)c2cc(O)c(O)c(O)c2Oc2cc3c(c(O)c2O)-c2c(cc(O)c(O)c2O)C(=O)OC2C(COC3=O)OC(OC(=O)c3cc(O)c(O)c(O)c3)C(OC(=O)c3cc(O)c(O)c(O)c3Oc3cc4c(c(O)c3O)-c3c(ccc(O)c3O)C(=O)OCC(O)C(OC4=O)C1OC(=O)c1cc(O)c(O)c(O)c1)C2OC(=O)c1cc(O)c(O)c(O)c1	IIIB		>100 µg/mL
C=CCOc1cccc(Cc2nc(SCC(C)C)nc(OCC(C)C)c2CC)c1	IIIB		>100 µM
Cc1ncn(Nc2cccc(Cl)c2)c1-c1cccc(Br)c1	IIIB		0.58 µM
C=CCCc1cccc(Cc2c(CC)c(=O)n(COCC)c(=O)n2COCC)c1	RT-K103N Y181C Mutant NNRTI-resistant		>45 µM
S=c1[nH]c(-c2ccccc2)c(-c2ccccc2)n1Nc1cccc(Cl)c1	NL4-3		>36.31 µM
CCc1c(Cc2cccc(Cc3nc(N4CCCCC4)[nH]c(=O)c3CC)c2)nc(N2CCCCC2)[nH]c1=O	RT-K103N+Y181C NNRTI-resistant	RT-K103N Y181C	>80 µM
C=CCOc1cccc(Cc2[nH]c(=O)[nH]c(=O)c2CC)c1	RT-Y181C Mutant NNRTI-resistant		>20 µM
Cc1cn([C@H]2C=C[C@@H](CO)O2)c(=O)[nH]c1=O	RD 03-RT-41L 210W 215C Recombinant		0.31 µM
CCCOC(=O)c1cc(O)c(O)c(O)c1	IIIB		>12.5 µg/mL
CCOCn1c(Cc2cccc(Cc3c(CC)c(=O)[nH]c(=O)n3COCC)c2)c(CC)c(=O)[nH]c1=O	RT-K103N+Y181C NNRTI-resistant	RT-K103N Y181C	>100 µM
S=c1[nH]c2c(n1Nc1cccc(Cl)c1)CCCC2	IIIB		>126 µM
O=CC(O)C(OC(=O)c1cc(O)c(O)c(O)c1)C1OC(=O)c2cc(O)c(O)c(O)c2-c2c(cc(O)c(O)c2O)C(=O)OCC1O	IIIB		2 µg/mL
CCc1[nH]c(=S)n(Nc2cccc(C)c2)c1-c1ccccc1	SO561945 (RT K103N Y181C)	RT-K103N Y181C	≥53.55 µM
C=CCOCn1c(Cc2cccc(OCC=C)c2)c(CC)c(=O)[nH]c1=O	RT-K103N Y181C Mutant NNRTI-resistant		>44 µM

Repeating the final 3 entries:

O=CC(O)C(OC(=O)c1cc(O)c(O)c(O)c1)C1OC(=O)c2cc(O)c(O)c(O)c2-c2c(cc(O)c(O)c2O)C(=O)OCC1O ; strain: IIIB ; result: 2 µg/mL
CCc1[nH]c(=S)n(Nc2cccc(C)c2)c1-c1ccccc1 ; strain: SO561945 (RT K103N Y181C) ; mutations: RT-K103N Y181C ; result: ≥53.55 µM
C=CCOCn1c(Cc2cccc(OCC=C)c2)c(CC)c(=O)[nH]c1=O ; strain: RT-K103N Y181C Mutant NNRTI-resistant ; result: >44 µM